Results of unrelated studies side by side (data: NIAID ChemDB).

Common to all: tests in culture; organism: HIV-1; cell line: MT-4; endpoint: EC50

Conditions beyond the fields shown may differ between rows. ECn: concentration that inhibits the pathogen or its effect by n%. Blank or dashed fields: not listed here.

compound	strain	mutations	read by	conditions	value
CC(C)CN(C[C@@H](O)[C@H](Cc1ccccc1)NC(=O)OCc1cncs1)S(=O)(=O)c1ccc2nc(N(C)C(=O)CN3CCOCC3)sc2c1	R13080	-	cytopathic effect / MTT	-	0.6607 µM
C=CC1C[C@@]23CCC4=C(C)C(=O)CC[C@@]4(C)[C@@H]2C[C@@H]1[C@@H](O)C3=O	-	-	MTT	-	>25 µg/mL
CC(C)CN(C[C@@H](O)[C@H](Cc1ccccc1)NC(=O)OCc1cncs1)S(=O)(=O)c1ccc2nc(N(C)C(=O)CN(C)C)sc2c1	R13080	-	cytopathic effect / MTT	-	0.2239 µM
Nc1ncnc2c1ncn2C1CC(O)C(COP(=O)(O)OP(=O)(O)OC2CC(n3cnc4c(N)ncnc43)OC2COP(=O)(O)O)O1	IIIB	-	cytopathic effect / MTT	-	>100 µM
CC(C)CN(C[C@@H](O)[C@H](Cc1ccccc1)NC(=O)O[C@H]1CCOC1)S(=O)(=O)c1ccc2nc(NCCN(C)C)sc2c1	R13080	-	cytopathic effect / MTT	-	1 µM
COC(=O)/C=C1\S/C(=N/N=C/c2cc([N+](=O)[O-])ccc2O)NC1=O	IIIB	-	cytopathic effect / MTT	-	>0.088 µM
CCCCCCN(CCCCCC)c1ccc(/C=C2/SC(=O)N(CC(=O)Nc3nc4ccc(SC#N)cc4s3)C2=O)cc1	IIIB	-	MTT	-	>39 µM
C[C@H](CCC=C(c1cc(Cl)c(O)c(C(=O)O)c1)c1cc(Cl)c(O)c(C(=O)O)c1)[C@H]1CC[C@H]2[C@@H]3CC[C@@H]4CCCC[C@]4(C)[C@H]3CC[C@]12C	IIIB	-	MTT	-	27.2 µM
C=CC1C[C@@]23CC[C@H](C(C)(C)O)[C@@](C)(CCC(=O)OC)[C@@H]2C[C@@H]1[C@@H](O)C3=O	-	-	MTT	-	>25 µg/mL
Nc1nc2c(ncn2C2CC(O)C(COP(=O)(O)OP(=O)(O)OC3CC(n4cnc5c(=O)[nH]c(N)nc54)OC3COP(=O)(O)O)O2)c(=O)[nH]1	IIIB	-	cytopathic effect / MTT	-	>100 µM
COC(=O)/C=C1\S/C(=N/N=C/c2cccc(OC)c2)NC1=O	IIIB	-	cytopathic effect / MTT	-	>61.3 µM
CC(C)(C)[Si](C)(C)O[C@H]1[C@H](n2cnc3c(N)ncnc32)O[C@H](CO)C12CS(=O)(=O)C=C2N	IIIB	-	p24	-	>200 µg/mL
N#CSc1ccc2nc(NC(=O)CN3C(=O)S/C(=C/c4cccc(Oc5ccccc5)c4)C3=O)sc2c1	IIIB	-	MTT	-	>100 µM
CC(C)CN(C[C@@H](O)[C@@H](NC(=O)O[C@H]1CCOC1)Sc1ccccc1)S(=O)(=O)c1ccc(N)cc1	-	-	syncytia	-	>50 µM
N#CSc1ccc2nc(NC(=O)CN3C(=O)S/C(=C/c4ccc(F)cc4)C3=O)sc2c1	IIIB	-	MTT	-	>100 µM
Cc1cn([C@H]2C[C@H](O[Si](C)(C)C(C)(C)C)[C@@H](CO)O2)c(=O)[nH]c1=O	IIIB	-	p24	-	>20 µg/mL
N#CSc1ccc2nc(NC(=O)CN3C(=O)S/C(=C/c4cccc(-c5ccco5)c4)C3=O)sc2c1	IIIB	-	MTT	-	>100 µM
Cc1cc(Br)cc(C)c1OCC(=O)N[C@@H](Cc1ccccc1)[C@H](O)CN(CC(C)C)S(=O)(=O)c1ccc(-c2csc(N)n2)cc1	LAI	-	cytopathic effect / MTT	-	5.012 µM
Nc1ncnc2c1ncn2[C@H]1C[C@H]2OC[C@@H](O)[C@H]2O1	-	-	-	-	>100 µM
CC(C)CN(C[C@@H](O)[C@H](Cc1ccccc1)NC(=O)O[C@H]1CO[C@H]2OCC[C@H]21)S(=O)(=O)c1ccc(-c2csc(Nc3ccncc3)n2)cc1	LAI	-	cytopathic effect / MTT	-	0.025 µM
CC1(C)[C@H](O)CC[C@]2(C)[C@@H]1CC[C@@]13CC[C@@H](C[C@H]12)C([C@@H](O)CO)C3	-	-	MTT	-	>25 µg/mL
CC(=O)O[C@H]1[C@H](n2cc(C)c(=O)[nH]c2=O)O[C@H](COC(=O)c2ccccc2)C12OS(=O)(=O)C=C2N	IIIB	-	p24	-	>100 µg/mL
COC(=O)/C=C1\S/C(=N/N=C/c2cccc(Br)c2)NC1=O	IIIB	-	cytopathic effect / MTT	-	>11.15 µM
COc1ccc(/C=C2/SC(=O)N(CC(=O)Nc3nc4ccc(SC#N)cc4s3)C2=O)cc1	IIIB	-	MTT	-	>100 µM
COc1c(Cl)cc(C(=CCC[C@@H](C)[C@H]2CCC3C4C(C[C@H](O)[C@@]32C)[C@@]2(C)CC[C@@H](O)C[C@H]2C[C@H]4O)c2cc(Cl)c(OC)c(C(=O)O)c2)cc1C(=O)O	IIIB	-	MTT	-	>50 µM
COC(=O)/C=C1\S/C(=N/N=C/C2CCCCC2)NC1=O	IIIB	-	cytopathic effect / MTT	-	>57.53 µM
Cc1ccc(/C=C2/SC(=O)N(CC(=O)Nc3nc4ccc(SC#N)cc4s3)C2=O)cc1	IIIB	-	MTT	-	>50 µM
Cc1cccc(C)c1OCC(=O)N[C@@H](Cc1ccccc1)[C@H](O)CN(CC(C)C)S(=O)(=O)c1ccc(-c2ccnn2Cc2ccccc2)cc1	LAI	-	cytopathic effect / MTT	-	6.31 µM
CN(C)c1ccc(/C=C2/SC(=O)N(CC(=O)Nc3nc4ccc(SC#N)cc4s3)C2=O)cc1	IIIB	-	MTT	-	>61 µM
CNc1nc(-c2ccc(S(=O)(=O)N(CC(C)C)C[C@@H](O)[C@H](Cc3ccccc3)NC(=O)O[C@H]3CO[C@H]4OCC[C@H]43)cc2)cs1	LAI	-	cytopathic effect / MTT	-	0.003 µM
CC(C)CN(C[C@@H](O)[C@H](Cc1ccccc1)NC(=O)O[C@H]1CO[C@H]2OCC[C@H]21)S(=O)(=O)c1ccc2nc(NC3CCN(C4CCCC4)CC3)sc2c1	T20760	L10F I47I/V	reporter gene	-	65 nM
CC(C)CN(C[C@@H](O)[C@H](Cc1ccccc1)NC(=O)OCc1cncs1)S(=O)(=O)c1ccc2nc(NC(=O)CN3CCNCC3)sc2c1	R13025	-	cytopathic effect / MTT	-	0.0316 µM
COC(=O)/C=C1\S/C(=N/N=C/c2ccccc2Cl)NC1=O	IIIB	-	cytopathic effect / MTT	-	>78.7 µM
CC(=O)N(C)CCN(C)c1nc(C(=O)NCc2ccc(F)cc2)c(O)c2ncccc12	-	-	p24	10% FBS	<0.156 µM
C/C=C(\C)C(=O)OC[C@]1(C)C(=O)CC[C@@]2(C)[C@@H]3CC[C@H]4C[C@@]3(CC[C@@H]21)C[C@@]4(O)CO	-	-	MTT	-	>25 µg/mL
Cc1sc(N)nc1-c1ccc(S(=O)(=O)N(CC(C)C)C[C@@H](O)[C@H](Cc2ccccc2)NC(=O)O[C@H]2CO[C@H]3OCC[C@H]32)cc1	LAI	-	cytopathic effect / MTT	-	0.05 µM
N#CSc1ccc2nc(NC(=O)CCl)sc2c1	IIIB	-	MTT	-	>8 µM
CC(C)CN(C[C@@H](O)[C@H](Cc1ccccc1)NC(=O)OCc1cncs1)S(=O)(=O)c1ccc2nc(NC(=O)CN3CCN(C)CC3)sc2c1	R13080	-	cytopathic effect / MTT	-	0.0347 µM
C=C1C[C@@]23CC[C@@H]4C(C)(C)C(=O)CC[C@@]4(C)[C@@H]2C[C@@H]1[C@@H](O)C3=O	-	-	MTT	-	>25 µg/mL

Again, the opening 6 rows:

| compound | strain | mutations | read by | conditions | value |
|---|---|---|---|---|---|
| CC(C)CN(C[C@@H](O)[C@H](Cc1ccccc1)NC(=O)OCc1cncs1)S(=O)(=O)c1ccc2nc(N(C)C(=O)CN3CCOCC3)sc2c1 | R13080 | - | cytopathic effect / MTT | - | 0.6607 µM |
| C=CC1C[C@@]23CCC4=C(C)C(=O)CC[C@@]4(C)[C@@H]2C[C@@H]1[C@@H](O)C3=O | - | - | MTT | - | >25 µg/mL |
| CC(C)CN(C[C@@H](O)[C@H](Cc1ccccc1)NC(=O)OCc1cncs1)S(=O)(=O)c1ccc2nc(N(C)C(=O)CN(C)C)sc2c1 | R13080 | - | cytopathic effect / MTT | - | 0.2239 µM |
| Nc1ncnc2c1ncn2C1CC(O)C(COP(=O)(O)OP(=O)(O)OC2CC(n3cnc4c(N)ncnc43)OC2COP(=O)(O)O)O1 | IIIB | - | cytopathic effect / MTT | - | >100 µM |
| CC(C)CN(C[C@@H](O)[C@H](Cc1ccccc1)NC(=O)O[C@H]1CCOC1)S(=O)(=O)c1ccc2nc(NCCN(C)C)sc2c1 | R13080 | - | cytopathic effect / MTT | - | 1 µM |
| COC(=O)/C=C1\S/C(=N/N=C/c2cc([N+](=O)[O-])ccc2O)NC1=O | IIIB | - | cytopathic effect / MTT | - | >0.088 µM |